Here are results for 1 compound from PMC10433847, “The Plasmodium Lactate/H^+ Transporter PfFNT Is Essential and Druggable In Vivo” (Antimicrobial Agents and Chemotherapy, 2023).

Sequences of proteins named here, by UniProt entry; tags and fusion partners are left off.
UniProt O77389, whole entry V196L: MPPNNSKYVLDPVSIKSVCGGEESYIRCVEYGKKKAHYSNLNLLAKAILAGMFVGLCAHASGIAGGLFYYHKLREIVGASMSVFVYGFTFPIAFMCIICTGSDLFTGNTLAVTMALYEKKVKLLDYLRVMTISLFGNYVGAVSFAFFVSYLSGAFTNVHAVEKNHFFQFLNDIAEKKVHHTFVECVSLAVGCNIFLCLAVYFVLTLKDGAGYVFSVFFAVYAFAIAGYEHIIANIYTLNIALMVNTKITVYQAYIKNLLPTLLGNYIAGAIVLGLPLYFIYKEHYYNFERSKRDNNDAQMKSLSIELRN

In this test the target is PfFNT V196L (Plasmodium falciparum, UniProt O77389, V196L). As to the kind of experiment: 14C-lactate transport inhibition, PfFNT V196L expressed in yeast. To be noted: read-out: IC50, inhibition of 14C-lactate transport, pH 6.8, 1-mM inward lactate gradient. The text has this: The generation of codon-optimized wild-type PfFNT and the G107S mutant in the yeast expression vector pDR196 have been described previously ([3], [12]). Point mutations encoding G21E or V196L were introduced using the QuikChange protocol (Stratagene), and sequenced for verification (for primers, see Table S2). For phenotypic growth assays, the PfFNT mutants were expressed in Saccharomyces cerevisiae strain W303-1A Δ jen1Δady2 cells (MATa, can1–100, ade2-loc, his3–11,15, leu2–3,–112, trp1–1–1, ura3–1, jen1::kanMX4, ady2::hphMX4) kindly provided by M. Casal ([33]). Yeast cultures were grown at 29°C to an optical density at 600 nm (OD600) of 1 ± 0.1 in selective SD medium with adenine, histidine, leucine, tryptophan, and 2% (wt/vol) glucose and lacking uracil. The cells were collected by centrifugation, washed with water, and diluted to an OD600 of 0.05 in 0.17% (wt/vol) Difco yeast nitrogen base without amino acids, 0.5% (wt/vol) ammonium sulfate, 50 mM morpholineethanesulfonic acid, and 1% (wt/vol) sodium L-lactate supplemented with adenine, histidine, leucine, and tryptophan. Growth at 29°C was monitored by measuring the OD600 at regular intervals. […] IC50 values were calculated from sigmoidal fits to a Hill equation (GraphPad Prism) from technical triplicates each for three biological repetitions.

Molecules are shown by their SMILES.

Consider `COc1ccc(C(=O)C=C(O)C(F)(F)C(F)(F)F)cn1`, for which the IC50 (usually the concentration at which inhibition is half-maximal) came to 0.0102 mM.
